Measured values from several laboratories, pooled; numbers as filed in NIAID ChemDB.

All rows: tests in culture

Two numbers with a dash give a range or band.

structure,dose,method,strain or isolate,read-out,mutations,cells,species,value
CCCO/C(=N/NC(=O)OCC)C(C)(O)c1ccc2ccccc2c1,5 µM,hypoxanthine uptake / radiometric,3D7,inhibition,,,Plasmodium falciparum,85%
O=C(NCc1ccc(Cl)cc1)c1c[nH]c2c(F)cccc2c1=O,,plaque count,,EC50,,,Simian varicella-zoster virus,4.3 µM
C[C@@H](c1ncncc1F)[C@](O)(Cn1cncn1)c1ccc(F)cc1F,,broth dilution,CBS 11542,MIC,,,Cryptococcus gattii,1 µg/mL
COC(=N)c1ncn([C@@H]2O[C@H](CO)[C@@H](O)[C@H]2O)n1,,cytopathic effect,Sicilian,EC50,,VERO,Sandfly fever virus,98 µg/mL
O=C(Nc1ccc(NC(=S)Nc2cc(C(F)(F)F)cc(C(F)(F)F)c2)cc1)c1cscn1,,,,EC50,,HFF,Respiratory syncytial virus,>10 µg/mL
OC[C@H]1O[C@@H](n2cnc3c(SCc4ccc(OC(F)(F)F)cc4)ncnc32)[C@H](O)[C@@H]1O,5 µM,,RH adenosine kinase-deficient,inhibition,,,Toxoplasma gondii,0%
CO[C@H]([C@H](C)[C@H](/C=C/c1ccccc1)OC)[C@@H](C)/C=C/C(C)=C/C(=O)N/C=C\C/C=C\C(=O)NCC(=O)O,,,,MIC,,,Saccharomyces cerevisiae,12.5 µg/mL
Nc1nc2c(nc(Cl)n2COCCO)c(=O)[nH]1,,cytopathic effect,,EC50,,PRK,Vesicular stomatitis virus,>400 µg/mL
C[C@@H](c1ncncc1F)[C@](O)(Cn1cncn1)c1ccc(F)cc1F,,broth dilution,,MIC50,,,Aspergillus terreus,0.5 µg/mL
Nc1nc2c(ncn2[C@H]2C[C@@H](O)[C@H](O)[C@@H]2O)c(=O)[nH]1,,antigen,,EC50,,DAUDI,Epstein-Barr virus,>50 µg/mL
COc1cc(C2OC(c3sc4ccc(Cl)cc4c3Cl)=NN2C(C)=O)cc(OC)c1OC,40 µg/mL,agar diffusion / agar,ATCC 27853,zone,,,Pseudomonas aeruginosa,18 mm
O=C(NCc1ccc(Cl)cc1)c1c[nH]c2ccc(CCCO)cc2c1=O,,plaque count,ATCC,EC50,,,Rat cytomegalovirus,0.3 µM
c1cc(N2CCN(c3ccc(C4=NCCN4)cc3)CC2)ccc1C1=NCCN1,,ATP,,EC50,,,Pneumocystis carinii,1.71 µg/mL
CCCc1ccc(CCCOc2c(C)cc(-c3nnn(C)n3)cc2C)o1,,cytopathic effect,,EC50,,HeLa,Enterovirus,0.033–0.659 µg/mL
OC[C@H]1O[C@@H](n2cnc3c(SCc4ccc(Cl)cc4Cl)ncnc32)[C@H](O)[C@@H]1O,25 µM,,RH (WILD TYPE),inhibition,,,Toxoplasma gondii,65.5%
Cc1cnnc(CCCOc2cc(C)c(-c3noc(C)n3)c(C)c2)c1,,cytopathic effect,,EC50,,HeLa,Enterovirus,0.033–0.659 µg/mL
CC[C@H]1OC(=O)[C@H](C)C(=O)[C@H](C)[C@@H](O[C@@H]2O[C@H](C)C[C@H](N(C)C)[C@H]2O)[C@](C)(OC)C[C@@H](C)C(=O)[C@H](C)[C@H]2N(CCCCn3cnc(-c4cccnc4)c3)C(=O)O[C@]12C,,,595 strains,MIC50,,,Streptococcus pneumoniae,≤0.06 µg/mL
Cc1cn([C@H]2O[C@@H](CO)[C@H](O)[C@H]2F)c(=O)[nH]c1=O,,,,EC50,,H-1,Epstein-Barr virus,5 µM
CCC(=O)Nc1ccc(NC(=S)Nc2cc(Cl)c(OC)cc2OC)cc1,,,,EC50,,HFF,Respiratory syncytial virus,>10 µg/mL
Cc1ccc(CCCOc2c(C)cc(C#N)cc2C)o1,,cytopathic effect,,EC50,,HeLa,Enterovirus,0.033–0.659 µg/mL
CCCc1cc(=O)oc2c3c(c4c(c12)OC(C)(C)[C@H](O)[C@@H]4O)O[C@H](C)[C@@H](C)[C@@H]3O,,cytopathic effect,Chicago-1,EC50,,CV-1,Measles virus,5 µg/mL
CCC(C)n1ncn(-c2ccc(N3CCN(c4ccc(OC[C@H]5CO[C@](Cn6cncn6)(c6ccc(Cl)cc6Cl)O5)cc4)CC3)cc2)c1=O,32 µg/mL,broth dilution,AF293,inhibition,mpkC,,Aspergillus fumigatus,99.83%
C[C@@H]1C/C=C/C=C/C=C/C=C/[C@H](OC2O[C@H](C)[C@@H](O)[C@H](N)[C@@H]2O)CC2O[C@](O)(C[C@@H](O)C[C@H]3O[C@@H]3/C=C/C(=O)O1)C[C@H](O)[C@H]2C(=O)O,,,Species complex,MIC50,,,Aspergillus versicolor,8 µg/mL
CNc1nc2c(=O)[nH]c(N)nc2n1COCCO,,cytopathic effect,,EC50,,PRK,Vesicular stomatitis virus,>400 µg/mL
Cc1cn([C@H]2C[C@H](O[Si](C)(C)C(C)(C)C)[C@@H](/C=C\C#N)O2)c(=O)[nH]c1=O,,,AD169,EC50,,HeLa,Cytomegalovirus,10–20 µM
Nc1ncnc2c1ncn2C[C@@H](CO)OCP(=O)(O)O,,,TYPE 3,MIC,,,Adenovirus,0.3 µg/mL
O=C(O)P(=O)(O)O,,,295,EC50,,MRC-5,Cytomegalovirus,143.2 µM
CCOC(=O)N/N=C(/OCCc1ccccc1)C(C)(O)c1ccc2ccccc2c1,5 µM,hypoxanthine uptake / radiometric,3D7,inhibition,,,Plasmodium falciparum,0%
Nc1ncccc1-c1cc(Cc2ccc(COc3ccccn3)cc2)no1,,broth dilution,Fluconazole-resistant,MIC90,,,Candida spp.,0.03 µg/mL
CCOC(=O)N/N=C(/OC)C(C)(O)c1ccc2ccccc2c1,5 µM,hypoxanthine uptake / radiometric,3D7,inhibition,,,Plasmodium falciparum,76%
CNC(=O)c1ncn([C@@H]2O[C@H](CO)[C@@H](O)[C@H]2O)n1,,cytopathic effect,Sicilian,EC50,,VERO,Sandfly fever virus,>320 µg/mL
O=C(Nc1ccc(NC(=S)Nc2ccccc2)cc1)c1ccco1,,,,EC50,,HFF,Respiratory syncytial virus,>10 µg/mL
O=C(NCc1ccc(Cl)cc1)c1c[nH]c2c(F)cc(CCCO)cc2c1=O,,plaque count,ATCC,EC50,,,Rat cytomegalovirus,2.5 µM
CC(=O)Nc1ccc(C(=O)O)cc1,3000 µM,,,inhibition,,,Pneumocystis carinii,87%
CCCCCCCCN=C(N)c1ncn([C@@H]2O[C@H](CO)[C@@H](O)[C@H]2O)n1,,cytopathic effect,Sicilian,EC50,,VERO,Sandfly fever virus,339 µg/mL
O=c1cc(O)ccn1COCCO,,cytopathic effect,,EC50,,PRK,Vesicular stomatitis virus,>400 µg/mL
Nc1ncnc2c1c(Br)cn2COCCO,,plaque count,Lymphotropic,EC50,,GPE,Guinea pig herpesvirus,35.5 µg/mL
CC(=O)c1ccc(CCCOc2c(C)cc(-c3noc(C(F)(F)F)n3)cc2C)nn1,,cytopathic effect,,EC50,,HeLa,Enterovirus,0.033–0.659 µg/mL
CC(=O)N1N=C(c2sc3ccc(Cl)cc3c2Cl)OC1c1ccccc1,40 µg/mL,,,zone,,,Pseudomonas aeruginosa,10 mm
COCC1=C(C(=O)O)N2C(=O)C(NC(=O)/C(=N/OC)c3csc(N)n3)C2SC1,,,595 strains,MIC90,,,Streptococcus pneumoniae,0.125 µg/mL
CC(=O)N1N=C(c2sc3ccc(Cl)cc3c2Cl)OC1c1cccc(Oc2ccccc2)c1,40 µg/mL,agar diffusion / agar,ATCC 27853,zone,,,Pseudomonas aeruginosa,14 mm
CCCCCCCCCCCCN=C(N)c1ccc(N2CCN(c3ccc(C(N)=NCCCCCCCCCCCC)cc3)CC2)cc1,,ATP,,EC50,,,Pneumocystis carinii,0.537 µg/mL
Nc1nc2c(ncn2COCCO)c(=O)[nH]1,,,,EC50,,H-1,Epstein-Barr virus,50 µM
O=c1[nH]c(=O)n(COCCO)cc1/C=C/Br,,cytopathic effect,,EC50,,PRK,Vesicular stomatitis virus,>400 µg/mL
COc1cc(OC)c(NC(=S)Nc2ccc(NC(=O)c3ccco3)cc2C#N)cc1Cl,,,,EC50,,HFF,Respiratory syncytial virus,>10 µg/mL
CCO/C(=N/NC(=O)NC)C(C)(O)c1ccc2ccccc2c1,5 µM,hypoxanthine uptake / radiometric,3D7,inhibition,,,Plasmodium falciparum,40%
Nc1nc(Cl)c2ncn(COCCO)c2n1,,cytopathic effect,,EC50,,PRK,Vesicular stomatitis virus,>400 µg/mL
CCCc1cc(=O)oc2cc(OC(=O)C(C)(C)C)c3c(c12)OC(C)(C)C=C3,,cytopathic effect,Edmonston,EC50,,CV-1,Measles virus,0.3 µg/mL
O=C(Nc1ccc(NC(=S)Nc2ccc(C(F)(F)F)c(Cl)c2)cc1)c1cocn1,,,,EC50,,HFF,Respiratory syncytial virus,>10 µg/mL
CC(C)CCN=C(N)c1ccc(N2CCN(c3ccc(C(N)=NCCC(C)C)cc3)CC2)cc1,,ATP,,EC50,,,Pneumocystis carinii,0.009 µg/mL
CCOC(=O)c1ccc(N=Nc2c(C)[nH]n(C(=O)c3sc4ccc(Cl)cc4c3Cl)c2=O)cc1,40 µg/mL,agar diffusion / agar,ATCC 27853,zone,,,Pseudomonas aeruginosa,15 mm
CCOC(=O)c1nc2cc([N+](=O)[O-])ccc2[nH]c1=O,,plaque count,Maryland B,EC50,,BSC-1/HELA,Influenza virus,40 µg/mL
Nc1nc2c(ncn2COC(CO)CO)c(=O)[nH]1,,plaque count,68-1,EC50,,HET,Rhesus cytomegalovirus,7 µM
Cc1cc(-c2noc(C(F)F)n2)cc(C)c1OCCCc1cccnn1,,cytopathic effect,,EC50,,HeLa,Enterovirus,0.033–0.659 µg/mL
NC(=NCC(=O)O)c1ncn([C@@H]2O[C@H](CO)[C@@H](O)[C@H]2O)n1,,cytopathic effect,Sicilian,EC50,,VERO,Sandfly fever virus,566 µg/mL
CC[C@H]1OC(=O)[C@H](C)C(=O)[C@H](C)[C@@H](O[C@@H]2O[C@H](C)C[C@H](N(C)C)[C@H]2O)[C@@]2(C)C[C@@H](C)C(=NC(C)=O)[C@H](C)C(OC/C(=N\OCC#Cc3cccc(N)n3)CO2)[C@]1(C)O,,,25 strains,MIC90,,,Haemophilus influenzae,>32 µg/mL
O=c1ccn(COCCO)c(=O)[nH]1,,cytopathic effect,,EC50,,PRK,Vesicular stomatitis virus,>400 µg/mL
CC1(C)S[C@@H]2[C@H](NC(=O)[C@H](N)c3ccc(O)cc3)C(=O)N2[C@H]1C(=O)O,,,595 strains,MIC90,,,Streptococcus pneumoniae,≤0.06 µg/mL
COc1ccc(CCCOc2cc(C)c(-c3noc(C(F)(F)F)n3)c(C)c2)nn1,,cytopathic effect,,EC50,,HeLa,Enterovirus,0.033–0.659 µg/mL
CCCc1cc(=O)oc2cc(OS(=O)(=O)c3ccc(C)cc3)cc(OS(=O)(=O)c3ccc(C)cc3)c12,,cytopathic effect,MO2,EC50,,CV-1,Measles virus,3 µg/mL
CN1CCN(C)C1c1ccc(N2CCN(c3ccc(C4N(C)CCN4C)cc3)CC2)cc1,,ATP,,EC50,,,Pneumocystis carinii,>100 µg/mL
C=CCc1ccc(O)c(OC)c1,,turbidity,3240,MIC90,,,Candida tropicalis,500 µg/mL
O=C(Nc1ccc(NC(=S)Nc2cc(C(F)(F)F)cc(C(F)(F)F)c2)cc1)c1csnn1,,,,EC50,,HFF,Respiratory syncytial virus,>10 µg/mL
Cc1cc(OCCCc2ccc(C=O)nn2)cc(C)c1-c1noc(C(F)F)n1,,cytopathic effect,,EC50,,HeLa,Enterovirus,0.033–0.659 µg/mL
CC(=O)N1N=C(c2sc3ccc(Cl)cc3c2Cl)OC1c1cc2cc(C)ccc2nc1Cl,40 µg/mL,agar diffusion / agar,ATCC 27853,zone,,,Pseudomonas aeruginosa,18 mm

The first 8 rows once more:

CCCO/C(=N/NC(=O)OCC)C(C)(O)c1ccc2ccccc2c1 ; dose: 5 µM ; method: hypoxanthine uptake / radiometric ; strain or isolate: 3D7 ; read-out: inhibition ; species: Plasmodium falciparum ; value: 85%
O=C(NCc1ccc(Cl)cc1)c1c[nH]c2c(F)cccc2c1=O ; method: plaque count ; read-out: EC50 ; species: Simian varicella-zoster virus ; value: 4.3 µM
C[C@@H](c1ncncc1F)[C@](O)(Cn1cncn1)c1ccc(F)cc1F ; method: broth dilution ; strain or isolate: CBS 11542 ; read-out: MIC ; species: Cryptococcus gattii ; value: 1 µg/mL
COC(=N)c1ncn([C@@H]2O[C@H](CO)[C@@H](O)[C@H]2O)n1 ; method: cytopathic effect ; strain or isolate: Sicilian ; read-out: EC50 ; cells: VERO ; species: Sandfly fever virus ; value: 98 µg/mL
O=C(Nc1ccc(NC(=S)Nc2cc(C(F)(F)F)cc(C(F)(F)F)c2)cc1)c1cscn1 ; read-out: EC50 ; cells: HFF ; species: Respiratory syncytial virus ; value: >10 µg/mL
OC[C@H]1O[C@@H](n2cnc3c(SCc4ccc(OC(F)(F)F)cc4)ncnc32)[C@H](O)[C@@H]1O ; dose: 5 µM ; strain or isolate: RH adenosine kinase-deficient ; read-out: inhibition ; species: Toxoplasma gondii ; value: 0%
CO[C@H]([C@H](C)[C@H](/C=C/c1ccccc1)OC)[C@@H](C)/C=C/C(C)=C/C(=O)N/C=C\C/C=C\C(=O)NCC(=O)O ; read-out: MIC ; species: Saccharomyces cerevisiae ; value: 12.5 µg/mL
Nc1nc2c(nc(Cl)n2COCCO)c(=O)[nH]1 ; method: cytopathic effect ; read-out: EC50 ; cells: PRK ; species: Vesicular stomatitis virus ; value: >400 µg/mL

Neighbouring rows are from separate reports. Percent inhibition refers to the dose given; in toxicity tests it is the harm to the cells. Zone: diameter of growth inhibition. An empty or dashed field is not shown. A number after MIC or MFC names an inhibition level or a share of isolates. ECn is the concentration giving n% inhibition of infection, replication or growth.